Pooled drug test results. Numbers come from NIAID ChemDB, via PubChem.

Shared fields: tests on isolated targets; agent: HIV-1; target: Protease; endpoint: IC50

Neighbouring rows are from separate reports. Blank or dashed fields: not listed here. ICn: concentration for n% inhibition.

SMILES,strain or isolate,read by,conditions,result
Cc1ccccc1N1CCN(Cc2cn([C@@H](Cc3ccccc3)[C@H](Cc3ccccc3)NC(=O)OC3CCCC3)nn2)CC1,-,fluorescence,-,<5 µM
CC(C)[C@H](NC(=O)N(C)Cc1ccccn1)C(=O)N[C@@H](Cc1ccccc1)[C@H](O)C(=O)N1[C@H](C(=O)NC(C)(C)C)C[C@@H]2CCCC[C@@H]21,BRU,substrate cleavage,-,0.025 µM
COC(=O)[C@]12CCC(C)(C)CC1C1=CCC3[C@@]4(C)CC[C@@H](N)C(C)(C)C4CC[C@@]3(C)[C@]1(C)CC2,-,HPLC,-,>20 µM
CC(C)(C)OC(=O)N[C@@H](Cc1ccccc1)[C@H](O)[C@H]1O[C@@H]1Cc1ccccc1,-,fluorescence,-,570 µM
O=C(N[C@@H](Cc1ccccc1)[C@H](Cc1ccccc1)n1cc(CN2CCN(c3ccc(Cl)cc3)CC2)nn1)OC1CCCC1,-,fluorescence,-,<5 µM
CC(C)c1ccccc1SC1=C(O)CC(CCCCC(=O)NCCc2ccccc2)(c2ccccc2)OC1=O,-,HPLC,pH 4.7,0.071 µM
Cc1c(Cl)cccc1N1CCN(Cc2cn([C@@H](Cc3ccccc3)[C@H](Cc3ccccc3)NC(=O)OC3CCCC3)nn2)CC1,-,fluorescence,-,<5 µM
O=C(O)c1cc(=O)c2c(OCC(O)COc3cccc4oc(C(=O)O)cc(=O)c34)cccc2o1,SF2,HPLC / fluorescence,-,290 µM
CC(C)CC(NC(=O)[C@@H](NC(=O)OCc1ccccc1)C(C)C)C(=O)C(F)(F)C(NC(=O)[C@@H](NC(=O)OCc1ccccc1)C(C)C)C(C)C,-,fluorescence,-,<0.001 µM
CC(C)[C@H](NC(=O)N(C)Cc1ccccn1)C(=O)N[C@@H](Cc1ccccc1)C(=O)C(F)(F)[C@H](Cc1ccccc1)NC(=O)[C@@H](NC(=O)N(C)Cc1ccccn1)C(C)C,-,fluorescence,-,0.0004 µM
CC[C@H](C)[C@H](NC(=O)[C@@H]1CCCN1C(=O)[C@@H](O)[C@H](Cc1ccccc1)NC(=O)[C@H](CC(N)=O)NC(=O)CCc1ccccc1)C(=O)N[C@H](C(N)=O)C(C)C,-,HPLC,-,0.1 µM
CC(C)[C@H](NC(=O)OCc1ccccn1)C(=O)NC(Cc1ccccc1)C(O)C(F)(F)C(Cc1ccccc1)NC(=O)OC(C)(C)C,-,fluorescence,-,~0.01 µM
CC(C)(C)NC(=O)[C@H]1N(C(=O)[C@@H](O)[C@H](Cc2ccccc2)NC(=O)[C@H](CC(N)=O)NC(=O)OCc2ccccc2)CSC1(C)C,-,HPLC,-,0.031 µM
Cc1cn([C@H]2C[C@H](N=[N+]=[N-])[C@@H](COC(=O)CCCCC(=O)O/N=C3\CC[C@]4(C)[C@H]5CC=C6[C@@H]7CC(C)(C)CC[C@]7(C(=O)O)CC[C@@]6(C)[C@]5(C)CC[C@H]4C3(C)C)O2)c(=O)[nH]c1=O,-,HPLC,-,1.9 µM
Cc1ccc(Cl)cc1N1CCN(Cc2cn([C@@H](Cc3ccccc3)[C@H](Cc3ccccc3)NC(=O)OCc3ccccc3)nn2)CC1,-,fluorescence,-,>5 µM
O=c1cc(-c2ccc(O)cc2)oc2cc(O)c(O)c(O)c12,-,fluorescence,-,58.8 µM
COc1ccc(S(=O)(=O)NC(N)=NCCC[C@H](NC(=O)N[C@@H](Cc2ccccc2)C(=O)OC(C)(C)C)C(=O)N[C@H](C(=O)N[C@H](CO)Cc2ccccc2)C(C)C)cc1,-,HPLC,-,68.2 µM
COc1cc(O)cc(O)c1C(=O)/C=C/c1ccccc1,-,HPLC,-,31 µg/mL
CC1(C)CC[C@]2(C(=O)O)CC[C@]3(C)C(=CC[C@@H]4[C@@]5(C)CC[C@H](O)C(C)(C)[C@@H]5CC[C@]43C)[C@@H]2C1,-,HPLC,-,8 µM
O=c1cc(-c2ccccc2)oc2c(O)c(O)ccc12,SF2,HPLC / fluorescence,-,100 µM
CC(C)c1ccccc1SC1=C(O)CC(CCCCC(=O)NCc2ccccc2)(c2ccccc2)OC1=O,-,HPLC,pH 4.7,0.026 µM
O=C1OC(CCc2ccccc2)(c2ccccc2)CC(O)=C1SCc1ccccc1,-,substrate cleavage,-,0.1 µM
CC(C)[C@H](NC(=O)OCc1ccccn1)C(=O)N[C@@H](Cc1ccccc1)C(=O)C(F)(F)[C@H](Cc1ccccc1)NC(=O)[C@@H](NC(=O)OCc1ccccn1)C(C)C,-,fluorescence,-,0.00002 µM
C[C@@H]1O[C@@H](OC[C@H]2O[C@@H](Oc3c(-c4ccc(O)cc4)oc4cc(O[C@@H]5O[C@@H](C)[C@H](O)[C@@H](O)[C@H]5O)cc(O)c4c3=O)[C@H](O)[C@@H](O)[C@H]2O)[C@H](O)[C@H](O)[C@H]1O,-,fluorescence,-,<50 µg/mL
COc1cc(C(=O)O)cc2c(=O)cc(C(=O)O)oc12,SF2,HPLC / fluorescence,-,600 µM
CC(C)(C)NC(=O)[C@@H]1CCCN1C(=O)[C@@H](O)[C@H](Cc1ccccc1)NC(=O)[C@H](CC(N)=O)NC(=O)COc1ccc2ccccc2c1,-,HPLC,-,0.012 µM
CC(C)c1ccccc1SC1=C(O)CC(CCCC(=O)Nc2ccccc2)(c2ccccc2)OC1=O,-,HPLC,pH 4.7,0.429 µM
CC(C)(C)NC(=O)[C@@H]1C[C@@H]2CCCC[C@@H]2N1C(=O)[C@@H](O)[C@H](Cc1ccccc1)NC(=O)[C@H](CC(N)=O)NC(=O)COc1cccc2ccccc12,BRU,substrate cleavage,-,0.0011 µM
C=C1OC(C(=O)O)C(/C(=C/C(=O)O)C(=O)OC2C3COC(=O)c4cc(O)c(O)c(O)c4-c4c(cc(O)c(O)c4O)C(=O)OC2C(O)C(OC(=O)c2cc(O)c(O)c(O)c2)O3)c2c1cc(O)c(O)c2O,-,HPLC,-,12.5 µM
C[C@H]1[C@H](C)CC[C@]2(C)CC[C@]3(C)C(=CC[C@@H]4[C@@]5(C)CC[C@H](O)C(C)(C)[C@@H]5CC[C@]43C)[C@H]12,-,HPLC,-,80 µM
CC(C)[C@H](NC(=O)OCc1ccccn1)C(=O)NC(Cc1ccccc1)C(O)C(F)(F)C(Cc1ccccc1)NC(=O)[C@@H](NC(=O)OCc1ccccn1)C(C)C,-,fluorescence,-,<0.001 µM
Cc1cccc(COC(=O)N[C@H](C(=O)N[C@@H](Cc2ccccc2)C(=O)C(F)(F)[C@H](Cc2ccccc2)NC(=O)[C@@H](NC(=O)OCc2cccc(C)n2)C(C)C)C(C)C)n1,-,fluorescence,-,0.00005 µM
CC(C)c1ccccc1SC1=C(O)CC(CCCC(N)=O)(c2ccccc2)OC1=O,-,HPLC,pH 4.7,0.101 µM
CCC(C)(C)NC(=O)[C@@H]1CCCN1C(=O)[C@@H](O)[C@H](Cc1ccccc1)NC(=O)[C@H](CC(N)=O)NC(=O)OCc1ccccc1,-,HPLC,-,0.572 µM
O=C1C[C@@H](c2ccc(O)cc2)Oc2cc(O)cc(O)c21,SF2,HPLC / fluorescence,-,165 µM
COc1ccc(S(=O)(=O)NC(N)=NCCC[C@H](NC(=O)N[C@@H](Cc2ccccc2)C(=O)OC(C)(C)C)C(=O)N[C@H](C(=O)N[C@H](C=O)Cc2ccccc2)C(C)C)cc1,-,HPLC,-,>100 µM
CC[C@H](C)[C@H](NC(=O)[C@@H]1CCCN1C(=O)[C@H](O)[C@H](Cc1ccccc1)NC(=O)[C@H](CC(N)=O)NC(=O)CCc1ccccc1)C(=O)N[C@H](C(N)=O)C(C)C,-,HPLC,-,0.468 µM
COc1cc(O)c2c(c1)O[C@H](c1ccccc1)CC2=O,-,HPLC,-,>100 µg/mL
CC(C)C[C@H](NC(=O)[C@@H](NC(=O)N(C)Cc1ccccn1)C(C)C)C(=O)C(F)(F)[C@H](CC(C)C)NC(=O)[C@@H](NC(=O)N(C)Cc1ccccn1)C(C)C,-,fluorescence,-,0.00155 µM
CC(C)[C@H](NC(=O)OCc1ccccc1)C(=O)NC(Cc1ccccc1)C(O)C(Cc1ccccc1)NC(=O)OC(C)(C)C,-,fluorescence,-,>0.01 µM
CC(C)NC(=O)[C@@H]1CCCN1C(=O)[C@@H](O)[C@H](Cc1ccccc1)NC(=O)[C@H](CC(N)=O)NC(=O)OCc1ccccc1,-,HPLC,-,0.52 µM
CC(C)[C@H](NC(=O)[C@H](CCCN=C(N)N)NC(=O)N[C@@H](Cc1ccccc1)C(=O)O)C(=O)NC(C=O)Cc1ccccc1,-,HPLC,-,8.95 µM
CC(C)(C)NC(=O)[C@H]1N(C(=O)[C@@H](O)[C@H](Cc2ccccc2)NC(=O)[C@H](CC(N)=O)NC(=O)COc2cccc(-c3ccccc3)c2)CSC1(C)C,-,HPLC,-,0.003 µM
CC(C)(C)NC(=O)[C@@H]1CCCN1C(=O)[C@@H](O)[C@H](Cc1ccccc1)NC(=O)[C@H](CC(N)=O)NC(=O)COc1cccc2ccccc12,BRU,substrate cleavage,-,0.00058 µM
CC(C)(C)NC(=O)[C@@H]1CSCN1C(=O)[C@@H](O)[C@H](Cc1ccccc1)NC(=O)[C@H](CC(N)=O)NC(=O)COc1cccc2ccccc12,-,HPLC,-,0.024 µM
CC(C)[C@H](NC(=O)c1ccc2ccccc2n1)C(=O)N[C@@H](Cc1ccccc1)[C@H](O)C(=O)N1[C@H](C(=O)NC(C)(C)C)C[C@@H]2CCCC[C@@H]21,BRU,substrate cleavage,-,0.03 µM
CC(C)c1ccccc1SC1=C(O)CC(CCCC(=O)N(C)Cc2ccccc2)(c2ccccc2)OC1=O,-,HPLC,pH 4.7,0.676 µM
CC(C)(C)NC(=O)[C@@H]1[C@H]2CCCC[C@H]2CN1C(=O)[C@@H](O)[C@H](Cc1ccccc1)NC(=O)[C@H](CC(N)=O)NC(=O)COc1cccc2ccccc12,BRU,substrate cleavage,-,0.00026 µM
CC(C)c1ccccc1SC1=C(O)CC(CCCC(=O)N2CCSCC2)(c2ccccc2)OC1=O,-,HPLC,pH 4.7,0.285 µM

For reference, 7 entries again:

| SMILES | strain or isolate | read by | conditions | result |
|---|---|---|---|---|
| CC1(C)CC[C@]2(C(=O)O)CC[C@]3(C)C(=CC[C@@H]4[C@@]5(C)CC[C@H](O)C(C)(C)[C@@H]5CC[C@]43C)[C@@H]2C1 | - | HPLC | - | 8 µM |
| O=c1cc(-c2ccccc2)oc2c(O)c(O)ccc12 | SF2 | HPLC / fluorescence | - | 100 µM |
| CC(C)NC(=O)[C@@H]1CCCN1C(=O)[C@@H](O)[C@H](Cc1ccccc1)NC(=O)[C@H](CC(N)=O)NC(=O)OCc1ccccc1 | - | HPLC | - | 0.52 µM |
| COc1cc(C(=O)O)cc2c(=O)cc(C(=O)O)oc12 | SF2 | HPLC / fluorescence | - | 600 µM |
| CC(C)[C@H](NC(=O)N(C)Cc1ccccn1)C(=O)N[C@@H](Cc1ccccc1)C(=O)C(F)(F)[C@H](Cc1ccccc1)NC(=O)[C@@H](NC(=O)N(C)Cc1ccccn1)C(C)C | - | fluorescence | - | 0.0004 µM |
| CC(C)[C@H](NC(=O)N(C)Cc1ccccn1)C(=O)N[C@@H](Cc1ccccc1)[C@H](O)C(=O)N1[C@H](C(=O)NC(C)(C)C)C[C@@H]2CCCC[C@@H]21 | BRU | substrate cleavage | - | 0.025 µM |
| CC(C)c1ccccc1SC1=C(O)CC(CCCCC(=O)NCc2ccccc2)(c2ccccc2)OC1=O | - | HPLC | pH 4.7 | 0.026 µM |